Experimental data as given in the NIST ThermoML archive (doi:10.1016/j.fluid.2013.01.002).

Legend:
[1] = 298.15 K; 101.33 kPa; Liquid; Vibrating tube method
[2] = refractive index (Na D-line) (dimensionless); conditions: 298.15 K; 101.33 kPa; Liquid; Standard Abbe refractometry
[3] = xn = mol fraction of the nth substance listed; conditions: 298.15 K, 101 kPa, Liquid, Vibrating tube method
[4] = refractive index (Na D-line) (dimensionless); xn = mol fraction of the nth substance listed; conditions: 298.15 K, 101 kPa, Liquid, Standard Abbe refractometry

CCCCOP(=O)(OCCCC)OCCCC [tributyl phosphate]
Conditions | mass density [kg/m3] | refractive index
[1] | 972.69 ± 0.05 | –
[2] | – | 1.4224 ± 0.0004

CCCCOP(=O)(OCCCC)OCCCC [tributyl phosphate] + CCCCCCCCCCC
Conditions | mass density, [3] [kg/m3] | refractive index, [4]
x1 = 0.05 | 751.14 ± 0.14 | 1.415 ± 0.0004
x1 = 0.0999 | 765.09 ± 0.14 | 1.4152 ± 0.0004
x1 = 0.2001 | 792.4 ± 0.13 | 1.4158 ± 0.0004
x1 = 0.2999 | 818.47 ± 0.12 | 1.4163 ± 0.0004
x1 = 0.3999 | 843.46 ± 0.11 | 1.417 ± 0.0004
x1 = 0.5001 | 867.4 ± 0.1 | 1.4178 ± 0.0004
x1 = 0.5998 | 890.24 ± 0.09 | 1.4188 ± 0.0004
x1 = 0.6997 | 912.19 ± 0.08 | 1.4197 ± 0.0004
x1 = 0.7999 | 933.33 ± 0.08 | 1.4206 ± 0.0004
x1 = 0.8998 | 953.53 ± 0.07 | 1.4216 ± 0.0004
x1 = 0.9503 | 963.33 ± 0.07 | 1.4219 ± 0.0004

CCCCOP(=O)(OCCCC)OCCCC [tributyl phosphate] + CCCCCCCCCCCC
Conditions | mass density, [3] [kg/m3] | refractive index, [4]
x1 = 0.0497 | 758.4 ± 0.14 | 1.4193 ± 0.0004
x1 = 0.0999 | 771.06 ± 0.13 | 1.4192 ± 0.0004
x1 = 0.2003 | 796.01 ± 0.12 | 1.4192 ± 0.0004
x1 = 0.3001 | 820.28 ± 0.12 | 1.4194 ± 0.0004
x1 = 0.4001 | 843.97 ± 0.11 | 1.4196 ± 0.0004
x1 = 0.5 | 867.06 ± 0.1 | 1.4199 ± 0.0004
x1 = 0.6 | 889.46 ± 0.09 | 1.4204 ± 0.0004
x1 = 0.7003 | 911.2 ± 0.08 | 1.4208 ± 0.0004
x1 = 0.8001 | 932.09 ± 0.08 | 1.4212 ± 0.0004
x1 = 0.9004 | 952.57 ± 0.07 | 1.4217 ± 0.0004
x1 = 0.9503 | 962.59 ± 0.07 | 1.4221 ± 0.0004

CCCCOP(=O)(OCCCC)OCCCC [tributyl phosphate] + CCCCCCCCCCCCO
Conditions | mass density, [3] [kg/m3] | refractive index, [4]
x1 = 0.05 | 838.29 ± 0.1 | 1.4392 ± 0.0004
x1 = 0.1002 | 846.1 ± 0.1 | 1.4377 ± 0.0004
x1 = 0.2 | 861.3 ± 0.09 | 1.4352 ± 0.0004
x1 = 0.3 | 876.21 ± 0.09 | 1.4329 ± 0.0004
x1 = 0.4 | 890.84 ± 0.08 | 1.4308 ± 0.0004
x1 = 0.5002 | 905.19 ± 0.08 | 1.429 ± 0.0004
x1 = 0.6002 | 919.33 ± 0.07 | 1.4274 ± 0.0004
x1 = 0.6997 | 933.02 ± 0.07 | 1.4259 ± 0.0004
x1 = 0.8001 | 946.59 ± 0.06 | 1.4246 ± 0.0004
x1 = 0.9004 | 959.86 ± 0.06 | 1.4234 ± 0.0004
x1 = 0.9502 | 966.27 ± 0.06 | 1.4229 ± 0.0004

± gives the expanded uncertainty stated by the source.
